Measurements: PMC12291119, “In Vitro Selection of Cyclized, Glycosylated Peptide Antigens That Tightly Bind HIV High Mannose Patch Antibodies” (ACS Central Science, 2025)

Biological target: PGT122
Assay: Biolayer interferometry (BLI) of immobilized biotinylated (glyco)peptides binding to PGT122
Conditions: peptide immobilized via biotin on streptavidin biosensor, 2-fold dilutions of PGT122, global 1:1 fit
Description: 9 Biolayer interferometry (BLI) measurement of glycopeptides immobilized via biotin on a streptavidin biosensor binding to PGT122 and gl-PGT121. All sensorgrams represent a series of 2-fold dilutions of antibodies with highest concentration tested labeled. All sequences followed by GSGSGK(Biotin). M denotes homopropargylglycine, modified by CuAAC as in Figure .
C. Binding Analysis of PGT Antibody-Peptide/Glycopeptide Interactions by Biolayer Interferometry
1. Biolayer Interferometry Protocol
Biotinylated glycopeptide was loaded onto a streptavidin biosensor in 250 µL buffer 1 (500 to 1000 nM […] glycopeptide in 20 mM Tris pH 7.5, 150 mM NaCl, 0.2 mg/ml BSA, 0.02% (v/v) Tween-20) for 120s in a […] of black Eppendorf tube. The sensor was then washed with 250 µL of blank buffer 1 for 120 seconds in a […] black Eppendorf tube. The sensor was washed with 250 µL buffer 3 (10 mM glycine HCl, pH 2.5) for 120 seconds in […] of black Eppendorf tube and followed by 250 µL of blank buffer 1 for 120 seconds in a […] black Eppendorf tube to immobilize glycopeptides in a range of 0.5 nm to 2 nm response. […]

AKTRTPMNLSGKSNIRYFFTIDNSTMFEDLFMRFPRSKEYHIELEEFEDLIR [compound 9, PGT122 selection hit 2U7 (K->E variant), synthetic Man9GlcNAc2 glycopeptide]
pKd: 6.95

pKd: −log10 of the molar value.
